Measured values from several laboratories, pooled; numbers as filed in NIAID ChemDB.

Common to all: whole-cell or culture tests; agent: Mycobacterium tuberculosis

Fold resistance: result on the changed form divided by that on wild type.

compound,strain,mutations,read by,endpoint,dose,value
CN1N=C(c2ccncc2)OC1c1ccccc1F,6 PI,,,MIC,,>20 µg/mL
CC(C)[C@H]1CO[C@]23CC[C@H](NCc4cc(C(F)(F)F)nc5ccccc45)C[C@H]2CCC(=O)N13,,,resazurin,MIC,,<0.5 µM
Cc1cc(C)cc(-n2nnc3ccccc3c2=O)c1,H37Rv,,resazurin,MIC bound,,>6.25 µg/mL
CO[C@H]1/C=C/O[C@@]2(C)Oc3c(C)c(O)c4c(=O)c(c5oc6cc(N7CCN(CC(C)C)CC7)cc(=O)c6nc5c4c3=C2O)NC(=O)/C(C)=C\C=C\[C@H](C)[C@H](O)[C@@H](C)[C@@H](O)[C@@H](C)[C@H](OC(C)=O)[C@@H]1C,Atencio,,,MIC,,0.001 µg/mL
COc1ccc([C@@H]2CC3(C[C@H](c4ccc(OC)cc4)N2)N=c2c(c4c5c6c(C)c(O)c4c(O)c2=NC(=O)/C(C)=C\C=C\[C@H](C)[C@H](O)[C@@H](C)[C@H](O)[C@H](C)[C@H](OC(C)=O)[C@H](C)[C@@H](OC)/C=C/O[C@@](C)(O6)C5=O)N3)cc1,H37Rv,,,MIC,,0.02 µg/mL
O=C1OCC2C3C=CC(O3)C12,H37Rv,,BACTEC,inhibition,12.5 µg/mL,-10%
O=[N+]([O-])c1cn2c(n1)OC[C@@H](OCc1ccc(N3CCC(Oc4ccc(C(F)(F)F)nc4)CC3)cc1)C2,,,resazurin,MIC90,,0.095 µM
O=C1NC(=S)N/C1=C/c1cccc(Cl)c1,H37Rv,,BACTEC,inhibition,6.25 µg/mL,71%
O=[N+]([O-])c1cn2c(n1)OC[C@@H](OCc1ccc(-c3ccc(Oc4ccc(C(F)(F)F)cc4)cc3)cc1)C2,,,resazurin,MIC90,,0.12 µM
CC(C)[C@H]1CO[C@]23CC[C@H](N(Cc4ccc(C(F)(F)F)cc4)CC4CCN(C(=O)OC(C)(C)C)CC4)C[C@H]2CCC(=O)N13,,,resazurin,MIC,,0.5–5 µM
COc1cc(C2=NN(C(=O)COc3ccc4ccccc4c3)[C@H](Cc3ccccc3)C2)c(C)cc1OCC(=O)O,H37Rv,,,inhibition,6.25 µg/mL,18%
C=C1C(=O)O[C@H]2/C=C(/CO)[C@H](OC(C)=O)C[C@H](O)/C(C)=C\[C@H](OC(=O)[C@@H](C)CC)[C@H]12,H37Rv,,BACTEC,inhibition,12.5 µg/mL,14%
CN1N=C(c2ccncc2)OC1c1ccc(Cl)cc1Cl,H37Rv,,,MIC,,>5 µg/mL
Cc1nc2scc(-c3ccco3)c2c(=O)n1NC(=O)c1ccc([N+](=O)[O-])cc1,CNCTC MY331/88,,,MIC,,6 µM
CC(C)[C@H]1CO[C@]23CC[C@@H](OC(c4ccc(Cl)cc4)c4ccc(Cl)cc4)C[C@H]2CCC(=O)N13,,,resazurin,MIC,,<0.5 µM
O=[N+]([O-])c1cn2c(n1)OC[C@@H](OCc1ccc(Oc3ccc(F)cc3)cc1)C2,,,low oxygen,MIC90,,1 µM
CCOC(=O)C1C(=O)N(C)C(=O)N1c1ccc(C)cc1,H37Rv,,BACTEC,MIC bound,,>12.5 µg/mL
COc1ccc(OC)c(/C=C2/NC(=S)NC2=O)c1,H37Rv,,BACTEC,inhibition,6.25 µg/mL,57%
C/C(NNC(=O)c1ccccc1O)=C1/C=Nc2ccccc2S1,H37Rv,,BACTEC,MIC,,≥12.5 µg/mL
O=C1NC(=S)N/C1=C\c1cccc([N+](=O)[O-])c1,H37Rv,,BACTEC,EC50,,>6.25 µg/mL
COc1ccc(-c2oc3ccccc3c(=O)c2Br)cc1,H37Rv,,,MIC,,>12.5 µg/mL
COc1cc(C)c(/C=C2/NC(=S)NC2=O)cc1C,H37Rv,,BACTEC,inhibition,6.25 µg/mL,43%
Cc1nc2scc(-c3ccco3)c2c(=O)n1N,CNCTC MY331/88,,,MIC,,482 µM
S=C(S)N1CCCC1,PZA-R,,,MIC,,0.4 µg/mL
CC(C)[C@H]1CO[C@]23CC[C@H](N(Cc4ccc(C(F)(F)F)cc4)C4COC4)C[C@H]2CCC(=O)N13,,,resazurin,MIC,,<0.5 µM
CN[C@@H]1[C@H](O[C@H]2[C@H](O[C@H]3[C@H](O)[C@@H](O)[C@H](N=C(N)N)[C@@H](O)[C@@H]3N=C(N)N)O[C@@H](C)[C@]2(O)C=O)O[C@@H](CO)[C@H](O)[C@H]1O,38396,,,MIC,,<2 µg/mL
O=C(/C=C/c1ccccc1)c1cc(Br)ccc1O,H37Rv,,,MIC,,>12.5 µg/mL
Cc1nc2scc(-c3ccco3)c2c(=O)n1/N=C/c1cccs1,CNCTC MY331/88,,,MIC,,54 µM
O=C1NC(=S)N/C1=C/c1cccc(F)c1,H37Rv,,BACTEC,inhibition,6.25 µg/mL,73%
CN(Cc1ccc(CO[C@@H]2COc3nc([N+](=O)[O-])cn3C2)cc1)c1ccc(OC(F)(F)F)cc1,,,resazurin,MIC90,,0.03 µM
COC(=O)[C@H]1[C@H](O)[C@@H](C)[C@@H](O)[C@](C)(O)/C=C(\C)C2=C3C(=C(C)C(=O)c4c(O)c(c(C)c(OC(C)=O)c43)NC(=O)/C(C)=C/C=C\[C@@H](C)C(O)[C@@H](C)[C@H]1O)OCO2,PZA-R,,,MIC,,0.8 µg/mL
O=C1NC(=S)N/C1=C/c1cccc(OCCc2ccccc2)c1,H37Rv,,BACTEC,inhibition,6.25 µg/mL,93%
Cc1nc2scc(-c3ccco3)c2c(=O)n1/N=C/C1CCCCC1,CNCTC MY331/88,,,MIC,,64 µM
CC(C)N1CC(=O)N2CSCC2C1=O,H37Rv,,BACTEC,inhibition,12.5 µg/mL,8%
COc1cccc(/C=C2/NC(=S)NC2=O)c1OC,H37Rv,,BACTEC,EC50,,>6.25 µg/mL
O=[N+]([O-])c1cn2c(n1)OC[C@@H](OCc1ccc(Oc3ccc(C(F)(F)F)nc3)cn1)C2,,,resazurin,MIC90,,0.06 µM
O=C1CN(c2cccc(C(F)(F)F)c2)C(=O)CN1/N=C/c1ccc[nH]1,H37Rv,,BACTEC,inhibition,12.5 µg/mL,0%
CC(C)[C@H]1CO[C@]23CC[C@H](OCc4ccc(C(F)(F)F)cc4)C[C@H]2CCC(=O)N13,,,resazurin,MIC,,<0.5 µM
Cc1cc(N=C2C=CC(=O)C=C2)ccc1O,H37Rv,,BACTEC,inhibition,12.5 µg/mL,3%
COc1ccc(/C=C/C(=O)c2ccccn2)cc1,H37Rv,,,MIC,,>12.5 µg/mL
COC(=O)C1=C(C)NC(CF)=C(C(=O)OC)C1c1cccc2c(=O)c3ccccc3oc12,H37Rv,,BACTEC,MIC bound,,>12.5 µg/mL
CC(C)[C@H]1CO[C@]23CC[C@H](N(CCCCS(C)(=O)=O)Cc4ccc(C(F)(F)F)cc4)C[C@H]2CCC(=O)N13,,,resazurin,MIC,,<0.5 µM
Cc1nc2scc(-c3ccco3)c2c(=O)n1/N=C/c1ccco1,CNCTC MY331/88,,,MIC,,52 µM
COc1ccc(OC)c(C2OC(c3ccncc3)=NN2C)c1,6 PI,,,MIC,,>20 µg/mL
CCc1ccc([C@H]2C[C@@H](C(F)(F)F)n3ncc(C(=O)NCc4ccc(OC)cc4)c3N2)cc1,H37Rv,MmpL3: Ile292Ser,fluorescence,fold resistance,,1
COc1ccc(/C=C/C(=O)c2ccc([N+](=O)[O-])cc2)cc1,H37Rv,,,MIC,,>12.5 µg/mL
C=CCOCN1c2cc(OC)c([C@@]3(C(=O)OC)C[C@@H]4CN(CCc5c3[nH]c3ccccc53)C[C@](O)(CC)C4)cc2C23CCN4CC=C[C@](CC)([C@H]42)[C@@H](OC(C)=O)[C@](O)(C(=O)OC)[C@H]13,H37Rv,,BACTEC,MIC bound,,>12.5 µg/mL
O=[N+]([O-])c1cn2c(n1)OC[C@@H](OCc1ccnc(N3CCN(c4ccc(C(F)(F)F)cn4)CC3)c1)C2,,,low oxygen,MIC90,,4.8 µM
CC(CCc1nc(C#N)c(N)o1)[C@H]1CC[C@H]2[C@@H]3CCC4C[C@@H](O)CC[C@]4(C)[C@H]3C[C@@H](O)[C@]12C,H37Rv,,resazurin,inhibition,6.25 µg/mL,44%
O=c1c(O)c(-c2ccccc2)oc2cc(Cl)ccc12,H37Rv,,,MIC,,>12.5 µg/mL
CN1N=C(c2ccncc2)OC1c1ccc(C(F)(F)F)cc1,H37Rv,,,MIC,,>20 µg/mL
Cc1nc2scc(-c3ccco3)c2c(=O)n1NC(=O)c1cccs1,CNCTC MY331/88,,,MIC,,46 µM
O=C1NC(=S)N/C1=C/c1ccccc1Br,H37Rv,,BACTEC,inhibition,6.25 µg/mL,26%
NNC(=O)c1ccncc1,91196,,,MIC,,≥0.2 µg/mL
COc1ccc2sc3c(C)ccc(NCC4CCCN5CCCCC45)c3c(=O)c2c1,H37Rv,,BACTEC,inhibition,12.5 µg/mL,100%
CO[C@H]1/C=C/O[C@@]2(C)Oc3c(C)c(O)c4c(O)c(c5c(c4c3C2=O)NC2(C[C@@H](c3ccc(F)cc3)N[C@@H](c3ccc(F)cc3)C2)N=5)=NC(=O)/C(C)=C\C=C\[C@H](C)[C@H](O)[C@@H](C)[C@H](O)[C@H](C)[C@H](OC(C)=O)[C@@H]1C,ATCC 35822 (isoniazid-resistant),,,MIC,,0.02 µg/mL
O=C(/C=C/c1ccccc1)c1ccc(Br)cc1O,H37Rv,,,inhibition,12.5 µg/mL,57%
O=[N+]([O-])c1cn2c(n1)OC[C@@H](OCc1ccc(/C=C/c3ccc(F)cc3)cc1)C2,,,resazurin,MIC90,,0.02 µM
NC(CCOCCP(=O)(O)CCOCCC(N)C(=O)O)C(=O)O,H37Rv,,BACTEC,MIC bound,,>12.5 µg/mL
NC[C@@H]1O[C@H](O[C@H]2[C@@H](O)[C@H](O[C@@H]3[C@@H](O)[C@H](N)C[C@H](N)[C@H]3O[C@H]3O[C@H](CO)[C@@H](O)[C@H](O)[C@H]3N)O[C@@H]2CO)[C@H](N)[C@@H](O)[C@@H]1O,MTB11 (EMB-R),,,MIC,,0.75 µg/mL
Cn1c(=O)nc2n(-c3cccc(Cl)c3)c3ccccc3nc-2c1=O,H37Rv,,BACTEC,MIC bound,,>12.5 µg/mL
Nc1cccc(/C=C/C(=O)c2ccccc2O)c1,H37Rv,,,MIC,,>12.5 µg/mL
O=[N+]([O-])c1cn2c(n1)OC[C@@H](OCc1ccc(OCc3ccccc3)cc1)C2,H37Rv-5A2 (PA-824-resistant),,,MIC,,>100 µM
NNC(=O)c1ccncc1,MTB9 (RIF-R),,,MIC,,>2 µg/mL
COc1cc2cc3c4cc(OC)c(OC)cc4cc[n+]3c(C)c2cc1OC,H37Rv,,BACTEC,MIC,,≥12.8 µg/mL
Cc1nc2scc(-c3ccco3)c2c(=O)n1NC(=O)c1ccccc1,CNCTC MY331/88,,,MIC,,99 µM
COc1ccc(C2OC(c3ccncc3)=NN2C)cc1OC,16PI,,,MIC,,>20 µg/mL
CO[C@H]1/C=C/O[C@@]2(C)Oc3c(C)c(O)c4c(O)c(c5c(c4c3C2=O)NC2(CCNCC2)N=5)=NC(=O)/C(C)=C\C=C\[C@H](C)[C@H](O)[C@@H](C)[C@@H](O)[C@@H](C)[C@H](OC(C)=O)[C@@H]1C,ATCC 35838 (rifampicin- rifabutin-resistant),,,MIC,,0.5 µg/mL
O=C(/C=C/c1ccccc1)c1cccc(I)c1O,H37Rv,,,inhibition,12.5 µg/mL,0%
O=c1nc(NCCc2c[nH]c3ccccc23)ccn1C1OC(CO)C(O)C1O,H37Rv,,BACTEC,MIC bound,,>12.5 µg/mL
CCN(CC)c1nc2c(s1)c1c(O)c3c(O)c(C)c4c(c32)C(=O)[C@@](C)(O/C=C/[C@H](OC)[C@@H](C)[C@@H](OC(C)=O)[C@H](C)[C@H](O)[C@H](C)[C@@H](O)[C@@H](C)/C=C/C=C(/C)C(=O)N1)O4,131-4,,,MBC,,0.5 µg/mL
C=C(C)[C@H]1Cc2c(ccc3c2O[C@@H]2COc4cc(OC)c(OC)cc4[C@@H]2C3=O)O1,H37Rv,,BACTEC,inhibition,128 µg/mL,88%
O=[N+]([O-])c1cn2c(n1)OC[C@@H](OCc1ccc(Oc3ccc(OC(F)(F)F)cc3)cc1)C2,,,low oxygen,MIC90,,0.87 µM
COc1cc2c(cc1OC)CN1CCc3cc(OC)c(OC)cc3C1C2,H37Rv,,BACTEC,inhibition,128 µg/mL,96%
O=[N+]([O-])c1cn2c(n1)OC[C@@H](OCc1ccc(OC(F)(F)F)cc1)C2,H37Rv-14A1-3547 (PA-824-resistant),,,MIC,,0.8–1.6 µM
O=C1NC(=S)N/C1=C/c1cc(F)cc(F)c1,H37Rv,,BACTEC,inhibition,6.25 µg/mL,55%
O=C(/C=C/c1ccccc1)c1ccccc1O,H37Rv,,,MIC,,>12.5 µg/mL

9 of the rows above, restated:

CC(CCc1nc(C#N)c(N)o1)[C@H]1CC[C@H]2[C@@H]3CCC4C[C@@H](O)CC[C@]4(C)[C@H]3C[C@@H](O)[C@]12C ; strain: H37Rv ; read by: resazurin ; endpoint: inhibition ; dose: 6.25 µg/mL ; value: 44%
O=C1NC(=S)N/C1=C/c1ccccc1Br ; strain: H37Rv ; read by: BACTEC ; endpoint: inhibition ; dose: 6.25 µg/mL ; value: 26%
NC[C@@H]1O[C@H](O[C@H]2[C@@H](O)[C@H](O[C@@H]3[C@@H](O)[C@H](N)C[C@H](N)[C@H]3O[C@H]3O[C@H](CO)[C@@H](O)[C@H](O)[C@H]3N)O[C@@H]2CO)[C@H](N)[C@@H](O)[C@@H]1O ; strain: MTB11 (EMB-R) ; endpoint: MIC ; value: 0.75 µg/mL
CN1N=C(c2ccncc2)OC1c1ccccc1F ; strain: 6 PI ; endpoint: MIC ; value: >20 µg/mL
O=[N+]([O-])c1cn2c(n1)OC[C@@H](OCc1ccc(OCc3ccccc3)cc1)C2 ; strain: H37Rv-5A2 (PA-824-resistant) ; endpoint: MIC ; value: >100 µM
COc1ccc2sc3c(C)ccc(NCC4CCCN5CCCCC45)c3c(=O)c2c1 ; strain: H37Rv ; read by: BACTEC ; endpoint: inhibition ; dose: 12.5 µg/mL ; value: 100%
O=C(/C=C/c1ccccc1)c1cc(Br)ccc1O ; strain: H37Rv ; endpoint: MIC ; value: >12.5 µg/mL
CC(C)[C@H]1CO[C@]23CC[C@@H](OC(c4ccc(Cl)cc4)c4ccc(Cl)cc4)C[C@H]2CCC(=O)N13 ; read by: resazurin ; endpoint: MIC ; value: <0.5 µM
CCc1ccc([C@H]2C[C@@H](C(F)(F)F)n3ncc(C(=O)NCc4ccc(OC)cc4)c3N2)cc1 ; strain: H37Rv ; mutations: MmpL3: Ile292Ser ; read by: fluorescence ; endpoint: fold resistance ; value: 1

A number after MIC or MFC names an inhibition level or a share of isolates. Percent inhibition refers to the dose given; in toxicity tests it is the harm to the cells. MIC bound comes from a single tested concentration. Neighbouring rows are from separate reports. ECn is the concentration giving n% inhibition of infection, replication or growth. Two numbers with a dash give a range or band. Blank or dashed fields: not listed here.